Measured values from several laboratories, pooled; numbers as filed in NIAID ChemDB.

All rows: whole-cell or culture tests; organism: HIV-1; cells: CEM; measure: EC50

Rows are shuffled and stem from different studies. Blank or dashed fields: not listed here. ECn is the concentration giving n% inhibition of infection, replication or growth.

structure | method | strain or isolate | changes | value
O=C(O)C[C@H](NC(=O)c1ccccc1SSc1ccccc1C(=O)N[C@@H](CC(=O)O)C(=O)O)C(=O)O | cytopathic effect / XTT | IIIB |  | >100 µM
Cc1sccc1C(=S)Nc1ccc(Cl)c(C(=O)OC2CCCCC2)c1 | syncytia | IIIB |  | 0.007 µM
COCCOC(=O)c1cc(NC(=O)C2=C(C)OCCS2)ccc1Cl | syncytia | PYR-resistant (RT Y181C) | RT-Y181C | >10 µg/mL
CCCOC(=O)c1cc(NC(=S)OC(C)C)ccc1Cl | syncytia |  | RT-E138K | 1.424 µM
Cc1occc1C(=S)Nc1ccc(Cl)c(/C=N/OCc2ccccc2)c1 | syncytia |  | RT-E138K | ≥2.6 µM
Cc1ccc(C)c(C(Cl)S(=O)(=O)c2cc(C)cc[n+]2[O-])c1 | syncytia | IIIB | RT-Y181C | >4 µg/mL
CC(C)C[C@H](NC(=O)c1ccccc1SSc1ccccc1C(=O)N[C@@H](CC(C)C)C(N)=O)C(N)=O | cytopathic effect / XTT | IIIB |  | 6.5 µM
CCOCn1c(Sc2ccccc2)c(CC)c(=O)[nH]c1=O | syncytia | IIIB TIBO R82913-resistant (RT K103N) | RT-K103N | 1.54 µM
O=C(O)CNC(=O)c1ccccc1SSc1ccccc1C(=O)NCC(=O)O | cytopathic effect / XTT | IIIB |  | 51.3 µM
CC(C)c1c(Sc2ccccc2)n(COCCO)c(=S)[nH]c1=O | syncytia | IIIB | RT-Y181C | 6 µM
CO/N=C/c1cc(NC(=S)OC(C)C)ccc1Cl | syncytia |  | RT-V106A | 20.92 µM
CCOC(=O)c1ccc(C2NC(=O)NC(CC)=C2C(=O)OCC2CCCCC2)cc1 | p24 / ELISA |  |  | >5 µM
NCCCC[C@H](NC(=O)c1ccccc1SSc1ccccc1C(=O)N[C@@H](CCCCN)C(=O)O)C(=O)O | cytopathic effect / XTT | IIIB |  | >100 µM
Cc1cc(C)c(CS(=O)c2cccc[n+]2[O-])c(C)c1 | syncytia | IIIB | RT-K103N | 11 µg/mL
Cc1ccc(C)c(C(C)S(=O)(=O)c2ccc(C)c[n+]2[O-])c1 | syncytia | IIIB | RT-E103K | 60 µg/mL
CC(=O)Nc1cc(S(=O)(=O)N(CC(C)C)C[C@@H](O)[C@H](Cc2ccccc2)NC(=O)OC(C)(C)C)ccc1F | p24 | IIIB |  | <1.001 µM
Cc1ccc(C)c(C(C)S(=O)(=O)c2c(C)ccc[n+]2[O-])c1 | syncytia | IIIB | RT-V179D | 0.35 µg/mL
Cc1ccoc1C(=S)Nc1ccc(Cl)c(C(=O)OC(C)C)c1 | syncytia |  | RT-E138K | 12 µM
Cc1sccc1C(=O)Nc1ccc(Cl)c(OCC=C(Cl)Cl)c1 | syncytia | Nevirapine-resistant isolate (RT V106A) | RT-V106A | 1.2 µg/mL
CC(C)OC(=S)Nc1ccc(Cl)c(C(=O)OC(C(C)C)C(C)C)c1 | syncytia |  | RT-V106A | ≥2.689 µM
O=C(O)CC[C@H](Cc1ccccc1)NC(=O)c1ccccc1SSc1ccccc1C(=O)N[C@H](CCC(=O)O)Cc1ccccc1 | cytopathic effect / XTT | IIIB |  | 2.1 µM
CCc1c(Sc2cc(C)cc(C)c2)n(COCCO)c(=O)[nH]c1=O | syncytia | IIIB | RT-Y188H | ≥10 µM
Cn1cccc1C(=S)Nc1ccc(Cl)c(/C=N/OC(C)(C)C)c1 | syncytia |  | RT-V106A | 0.28 µM
CC(C)C1=C(c2nc(C3CCCCC3)co2)C(c2ccc(O)c(Cl)c2)NC(=O)N1 | p24 / ELISA |  |  | >5 µM
Cc1occc1C(=S)Nc1ccc(Cl)c(C(=O)OC(C)C2CC2)c1 | syncytia |  | RT-L100I | 1.7 µM
C=CCOC(=O)N[C@@H](Cc1ccccc1)[C@H](O)CN(CC1CCCC1)S(=O)(=O)c1ccc(NC(C)=O)cc1 | p24 | IIIB |  | <0.101 µM
CCCCOC(=O)c1cc(NC(=O)C2=C(C)OCCS2)ccc1Cl | syncytia | Nevirapine-resistant (RT V106A) | RT-V106A | 6 µg/mL
COc1ccc(NC(=S)OC(C)C)cc1CC(=O)OC(C)C | syncytia |  | RT-E138K | 0.184 µM
O=S(=O)(Cc1c(Cl)c(Cl)c(Cl)c(Cl)c1Cl)c1cccc[n+]1[O-] | cytopathic effect | IIIB |  | 0.63 µg/mL
O=[N+]([O-])c1ccc[n+]([O-])c1SCc1ccccc1 | syncytia | IIIB | RT-L100I | 1.9 µg/mL
CC(C)OC(=S)Nc1ccc(Cl)c(C(=O)SC(C)C)c1 | syncytia | IIIB |  | 0.06 µM
COc1ccc(S(=O)(=O)N(CC2CCCC2)C[C@@H](O)[C@H](Cc2ccccc2)NC(=O)OCc2cccnc2)cc1 | p24 | IIIB |  | <0.1 µM
CC(C)=CCOc1cc(NC(=S)c2ccoc2C)ccc1Cl | syncytia | IIIB | RT-Y188H | 0.045 µM
Cc1ccc(C)c(CS(=O)(=O)c2cccc[n+]2[O-])c1 | syncytia | IIIB | RT-L100I | 10 µg/mL
CCOCn1c(Cc2ccccc2)c(C(C)C)c(=O)[nH]c1=O | syncytia | IIIB |  | 0.002 µM
CC(C)=CCOc1cc(NC(=S)c2ccsc2C)ccc1Cl | syncytia |  | RT-Y188L | 1.9 µM
C/C=C/COc1cc(NC(=S)OC(C)C)ccc1Cl | syncytia |  | RT-Y181C | 1.834 µM
CC(C)OC(=O)c1cc(NC(=S)c2ccccc2N)ccc1Cl | syncytia |  | RT-E138K | 6.6 µM
CCC1=C(C(=O)c2ccc(F)cc2)C(c2cccc(O)c2)NC(=O)N1 | p24 / ELISA |  |  | >5 µM
O=S(=O)(Cc1ccccc1I)c1cccc[n+]1[O-] | syncytia | IIIB | RT-E138K | 15 µg/mL
O=C(N[C@@H](Cc1ccccc1)[C@H](O)CN(CC1CCCC1)S(=O)(=O)c1ccc(F)cc1)O[C@@H]1CCOC1 | p24 | IIIB |  | <0.101 µM
CCCC1=C(C(=O)Nc2ccc(Cl)c(C(=O)OCC)c2)SCCO1 | syncytia | TSAO-resistant (RT E138K) | RT-E138K | 3.7 µg/mL
CSCCOC(=S)Nc1ccc(Cl)c(C(=O)OC(C)C)c1 | syncytia |  | RT-Y181C | 17.25 µM
O=C(O)CCCCNC(=O)c1ccccc1SSc1ccccc1C(=O)NCCCCC(=O)O | cytopathic effect / XTT | IIIB |  | 1.7 µM
CC(C)OC(=O)c1cc(NC(=S)OC(C)C)ccc1Cl | syncytia | IIIB |  | 0.029 µM
NC(=O)C[C@H](NC(=O)c1ccc2ccccc2n1)C(=O)N[C@@H](Cc1ccccc1)[C@H](O)CN(Cc1ccccc1)S(=O)(=O)c1cccc(C(F)(F)F)c1 | p24 | IIIB |  | <1.001 µM
CCC1=C(C(=O)OCC2CCCCC2)[C@H](c2cccc(OC(=O)c3ccccc3)c2)NC(=O)N1 | p24 / ELISA |  |  | ≤1 µM
C=C(Cl)COc1cc(NC(=S)c2ccsc2C)ccc1C#N | syncytia | TSAO-m3T-resistant (RT E138K) | RT-E138K | 0.13 µg/mL
CC(C)OC(=O)c1cc(NC(=S)OC(C)(C)C)ccc1Cl | syncytia |  | RT-E138K | 16.67 µM
CCOCn1c(Sc2ccccc2)c(C(C)C)c(=O)[nH]c1=S | syncytia | IIIB | RT-Y181I | >30 µM
CC(C)OC(=O)c1cc(NC(=S)c2ccsc2)ccc1Cl | syncytia |  | RT-Y181C | 22 µM
Cc1ccc(C)c(C(Cl)S(=O)(=O)c2cc(C)cc[n+]2[O-])c1 | cytopathic effect |  | RT-K103N | 3 µg/mL
Cc1ccccc1C(=S)Nc1ccc(Cl)c(C(=O)OC(C)C)c1 | syncytia |  | RT-Y181C | 15 µM
CC1=C(C(=O)Nc2ccc(Cl)c(C(=O)OC(C)C)c2)SCCO1 | syncytia | IIIB | RT-L100I | >112 µM
CCC1=C(C(=O)Nc2ccc(Cl)c(C(=O)OCC(C)C)c2)SCCO1 | syncytia | PYR-resistant (RT Y181C) | RT-Y181C | 0.6 µg/mL
NC(=O)C[C@H](NC(=O)c1ccc2ccccc2n1)C(=O)N[C@@H](Cc1ccccc1)[C@H](O)CN(Cc1ccccc1)S(=O)(=O)c1ccc(-c2ccon2)s1 | p24 | IIIB |  | <0.101 µM
C/C(Cl)=C/COc1cc(NC(=S)c2ccoc2C)ccc1Cl | syncytia | Nevirapine-resistant isolate (RT V106A) | RT-V106A | 0.012 µg/mL
CCCSC(=Nc1ccc(Cl)c(C(=O)OC(C)C)c1)OC(C)C | syncytia |  | RT-L100I | 27.78 µM
COc1ccccc1C(=S)Nc1ccc(Cl)c(C(=O)OC(C)C)c1 | syncytia |  | RT-V106A | 12 µM
Cc1ccc(C(C)S(=O)(=O)c2c(C)ccc[n+]2[O-])c(C)c1 | cytopathic effect |  | RT-Y181C | 50 µg/mL
CC(C)(C)OC(=O)c1cc(NC(=S)OC(C)(C)C)ccc1Cl | syncytia |  | RT-E138K | 1.89 µM
Cc1occc1C(=S)Nc1ccc(Cl)c(OC(=O)OC(C)C)c1 | syncytia |  | RT-Y188L | >6 µM
CC1=C(C(=O)Nc2ccc(Cl)c(C(=O)OC(C)C)c2)SCCO1 | syncytia | IIIB | RT-E138K | >61 µM
CCCCCOC(=O)c1cc(NC(=O)C2=C(C)OCCS2)ccc1Cl | syncytia | TSAO-resistant (RT E138K) | RT-E138K | 9 µg/mL
CC1=C(C(=O)Nc2ccc(Cl)c(OCC=C(Cl)Cl)c2)SCCO1 | syncytia | TSAO-m3T-resistant (RT E138K) | RT-E138K | 2 µg/mL
CCC(=O)C1=C(CCc2ccccc2)NC(=O)NC1c1ccc(O)c(Cl)c1 | p24 / ELISA |  |  | >5 µM
CC1=C(C(=O)Nc2ccc(Cl)c(C(=O)OC3CCCCC3)c2)SCCO1 | syncytia | Nevirapine-resistant (RT V106A) | RT-V106A | 5 µg/mL
CCC1=C(C(=O)OCC2CCCCC2)C(c2ccc(C(=O)OCc3ccccc3)cc2)NC(=O)N1 | p24 / ELISA |  |  | >5 µM
CCC(CC)OC(=O)c1cc(NC(=S)OC(C)C)ccc1Cl | syncytia |  | RT-Y181C | 11.63 µM
COc1ccc(NC(=S)c2ccsc2C)cc1OCC=C(Cl)Cl | syncytia | HEPT-resistant (RT Y188H) | RT-Y188H | 2 µg/mL
C/C=C\COc1cc(NC(=S)OC(C)C)ccc1OC | syncytia | IIIB |  | 0.1354 µM
CCC[C@H](NC(=O)c1ccccc1SSc1ccccc1C(=O)N[C@@H](CCC)C(=O)O)C(=O)O | cytopathic effect / XTT | IIIB |  | 28.5 µM
Cc1ccc(C)c(C(C)S(=O)(=O)c2c(C)ccc[n+]2[O-])c1 | cytopathic effect | RF |  | 0.3 µg/mL
Cc1ccccc1OC(=O)c1cc(NC(=S)OC(C)C)ccc1Cl | syncytia |  | RT-L100I | 15.1 µM
Cc1occc1C(=S)Nc1ccc(Cl)c(OCC=C(Cl)Cl)c1 | syncytia | IIIB |  | 0.0085 µg/mL
C/C=C/COc1cc(NC(=S)c2ccn(C)c2C)ccc1Cl | syncytia |  | RT-Y181C | 1.1 µM
Cc1ccc(C)c(CSc2c(Cl)ccc[n+]2[O-])c1 | syncytia | IIIB |  | 0.05 µg/mL
CC(C)OC(=O)c1cc(NC(=S)OCC2CC2)ccc1Cl | syncytia |  | RT-V106A | 16.78 µM
CC(C)c1c(Sc2ccccc2)n(COCc2ccccc2)c(=S)[nH]c1=O | syncytia | IIIB | RT-Y181C | 0.4 µM
CC(C)C(NC(=O)c1ccccc1SSc1ccccc1C(=O)NC(C(=O)O)C(C)C)C(=O)O | cytopathic effect / XTT | IIIB |  | 12 µM
Cc1ccc(C)c(CS(=O)c2ccc(Cl)c[n+]2[O-])c1 | syncytia | RF |  | 10 µg/mL
CC[C@H](C)OC(=S)Nc1ccc(Cl)c(C(=O)OC(C)C)c1 | syncytia |  | RT-V106A | 1.213 µM
Cc1ccc(C(C)S(=O)(=O)c2c(C)ccc[n+]2[O-])c(C)c1 | syncytia | RF |  | 7.7 µg/mL
CC(C)OC(=O)c1cc(NC(=S)SC(C)C)ccc1Cl | syncytia |  | RT-V106A | >30.13 µM
CCc1c(Sc2cc(C)cc(C)c2)n(COCc2ccccc2)c(=O)[nH]c1=O | syncytia | IIIB TIBO R82913-resistant (RT K103N) | RT-K103N | 0.06 µM
CC1=C(C(=O)Nc2cc(C(=O)OC(C)C)c(Cl)cc2F)SCCO1 | syncytia | PYR-resistant (RT Y181C) | RT-Y181C | >10 µg/mL
CC(C)COC(=O)c1cc(NC(=S)OC(C)C)ccc1Cl | syncytia |  | RT-V106A | 2.577 µM
COC(=O)[C@H](CO)NC(=O)c1ccccc1SSc1ccccc1C(=O)N[C@@H](CO)C(=O)OC | cytopathic effect / XTT | IIIB |  | 2.34 µM
CC1=C(C(=S)Nc2ccc(Cl)c(C=NOC(C)(C)C)c2)CCCO1 | syncytia |  | RT-K103N | 0.216 µM
COc1ccc(NC(=O)c2ccoc2C)cc1OCC=C(Cl)Cl | syncytia | TIBO R82150-resistant (RT L100I) | RT-L100I | 5 µg/mL
CCC(CC)COC(=O)c1cc(NC(=S)OC(C)C)ccc1Cl | syncytia | IIIB |  | 0.084 µM
COc1ccc(NC(=S)C2=C(C)OCCS2)cc1OCC=C(Cl)Cl | syncytia | TSAO-m3T-resistant (RT E138K) | RT-E138K | 3.5 µg/mL
CC(C)OC(=O)c1cc(NC(=S)N(C)C(C)C)ccc1Cl | syncytia |  | RT-Y181C | >30.32 µM
CCC1=C(C(=O)OCC2CCCCC2)[C@H](c2ccc(OC(=O)[C@H](C)NC(=O)OC(C)(C)C)cc2)NC(=O)N1 | p24 / ELISA |  |  | ≤1 µM